From patent US20160264649A1

B1: 4995_P16 (PGT-145) (antibody, V domains shown)
VH: QVQLVQSGAEVKKPGSSVKVSCKASGNSFSNHDVHWVRQATGQGLEWMGWMSHEGDKTGLAQKFQGRVTITRDSGASTVYMELRGLTADDTAIYYCLTGSKHRLRDYFLYNEYGPNYEEWGDYLATLDVWGHGTAVTVSS
VL: EVVITQSPLFLPVTPGEAASLSCKCSHSLQHSTGANYLAWYLQRPGQTPRLLIHLATHRASGVPDRFSGSGSGTDFTLKISRVESDDVGTYYCMQGLHSPWTFGQGTKVEIK
B2: 5136_H01 (PGT-131) (antibody, V domains shown)
VH: QVQLQESGPGLVKPSETLSLTCTVSGDSINTGHHYWGWVRQVPGKGPEWIAHIHYNTAVLHNPALKSRVTISIFTLKNLITLSLSNVTAADTAVYFCVRSGGDILYYIEWQKPHWFYPWGPGILVTVSS
VL: QSALTQPPSASGSLGQSLTISCSGTGSDIGSWNFVSWYQQFPGRAPNLIIFEVNRRRSGVPDRFSGSKSGNTASLTVSGLRSEDEAEYFCSSLSGRWDIVFGGGTKVTVL
B3: 5343_B08 (PGT-135) (antibody, V domains shown)
VH: QLQMQESGPGLVKPSETLSLSCTVSGDSIRGGEWGDKDYHWGWVRHSAGKGLEWIGSIHWRGTTHYKESLRRRVSMSIDTSRNWFSLRLASVTAADTAVYFCARHRHHDVFMLVPIAGWFDVWGPGVQVTVSS
VL: EIVMTQSPDTLSVSPGETVTLSCRASQNINKNLAWYQYKPGQSPRLVIFETYSKIAAFPARFVASGSGTEFTLTINNMQSEDVAVYYCQQYEEWPRTFGQGTKVDIK
B4: 5329_C19 (PGT-136) (antibody, V domains shown)
VH: QLQLQESGPGLVKPSETLSLTCTVSGGSMRGTDWGENDFHYGWIRQSSAKGLEWIGSIHWRGRTTHYKTSFRSRATLSIDTSNNRFSLTFSFVTAADTAVYYCARHKYHDIFRVVPVAGWFDPWGQGLLVTVSS
VL: EIVMTQSPPTLSVSPGETATLSCRASQNVKNNLAWYQLKPGQAPRLLIFDASSRAGGIPDRFSGSGYGTDFTLTVNSVQSEDFGDYFCQQYEEWPRTFGQGTKVDIK

biological target: HIV-1 Env of all pseudoviruses of the cross-clade 162-pseudovirus panel (n = 162); test: cell-based or functional assay

Row | Binder | Median IC50 (µg/ml) against all viruses
1 | B1 | 31.2 µg/mL

biological target: HIV-1 Env of all viruses (n=162) of the cross-clade 162-pseudovirus panel; test: cell-based or functional assay

Row | Binder | Median IC50 (µg/ml) against all viruses | Median IC50 (µg/ml) against viruses neutralized with an IC50 <50 µg/ml | Percent viruses neutralized with an IC50 <50 µg/ml
2 | B2 | 50 µg/mL | 0.52 µg/mL | 40%
3 | B3 | 50 µg/mL | 0.17 µg/mL | 33%
4 | B4 | 50 µg/mL | 7.81 µg/mL | 18%
5 | B1 |  | 0.29 µg/mL | 78%

biological target: HIV-1 Env of the 162-pseudovirus panel representing all major circulating HIV-1 subtypes (HIV-1); test: cell-based or functional assay

Row | Binder | Median IC50 (µg/ml) against viruses neutralized with an IC50 <50 µg/ml | Percent viruses neutralized, IC50 < 0.1 µg/ml | Percent viruses neutralized, IC50 < 1 µg/ml | Percent viruses neutralized, IC50 < 50 µg/ml
6 | B2 | 0.52 µg/mL | 13% | 23% | 40%
7 | B3 | 0.17 µg/mL | 13% | 23% | 33%
8 | B4 | 7.81 µg/mL | 3% | 6% | 16%
9 | B1 | 0.29 µg/mL | 27% | 52% | 78%

biological target: HIV-1 Env of the clade A viruses (n=26) of the cross-clade 162-pseudovirus panel; test: cell-based or functional assay

Row | Binder | Median IC50 (µg/ml) against viruses neutralized with an IC50 <50 µg/ml | Percent viruses neutralized with an IC50 <50 µg/ml | Median IC50 (µg/ml) against all viruses
10 | B2 | 0.09 µg/mL | 38% | 
11 | B3 | 0.64 µg/mL | 19% | 50 µg/mL
12 | B4 |  | 4% | 50 µg/mL
13 | B1 | 0.4 µg/mL | 81% | 1.16 µg/mL

biological target: HIV-1 Env of the clade AE pseudoviruses of the cross-clade 162-pseudovirus panel (n = 10); test: cell-based or functional assay

Row | Binder | Median IC50 (µg/ml) against all viruses
14 | B1 | 39.4 µg/mL

biological target: HIV-1 Env of the clade AE viruses (n=10) of the cross-clade 162-pseudovirus panel; test: cell-based or functional assay

Row | Binder | Median IC50 (µg/ml) against all viruses | Median IC50 (µg/ml) against viruses neutralized with an IC50 <50 µg/ml | Percent viruses neutralized with an IC50 <50 µg/ml
15 | B2 | 2.6 µg/mL | 0.08 µg/mL | 60%
16 | B3 | 50 µg/mL |  | 0%
17 | B4 | 50 µg/mL |  | 0%
18 | B1 |  | 0.97 µg/mL | 90%

biological target: HIV-1 Env of the clade AG pseudoviruses of the cross-clade 162-pseudovirus panel (n = 10); test: cell-based or functional assay

Row | Binder | Median IC50 (µg/ml) against all viruses
19 | B1 | 35.4 µg/mL

biological target: HIV-1 Env of the clade AG viruses (n=10) of the cross-clade 162-pseudovirus panel; test: cell-based or functional assay

Row | Binder | Median IC50 (µg/ml) against all viruses | Median IC50 (µg/ml) against viruses neutralized with an IC50 <50 µg/ml | Percent viruses neutralized with an IC50 <50 µg/ml
20 | B2 | 50 µg/mL | 0.18 µg/mL | 40%
21 | B3 | 50 µg/mL | 27.4 µg/mL | 20%
22 | B4 | 50 µg/mL | 29.1 µg/mL | 10%
23 | B1 |  | 0.16 µg/mL | 70%

biological target: HIV-1 Env of the clade B viruses (n=31) of the cross-clade 162-pseudovirus panel; test: cell-based or functional assay

Row | Binder | Median IC50 (µg/ml) against all viruses | Median IC50 (µg/ml) against viruses neutralized with an IC50 <50 µg/ml | Percent viruses neutralized with an IC50 <50 µg/ml
24 | B2 | 50 µg/mL | 0.07 µg/mL | 45%
25 | B3 | 50 µg/mL | 0.15 µg/mL | 39%
26 | B4 | 50 µg/mL | 13.2 µg/mL | 19%
27 | B1 | 0.34 µg/mL | 0.09 µg/mL | 77%

biological target: HIV-1 Env of the clade C pseudoviruses of the cross-clade 162-pseudovirus panel (n = 27); test: cell-based or functional assay

Row | Binder | Median IC50 (µg/ml) against all viruses
28 | B1 | 30.6 µg/mL

biological target: HIV-1 Env of the clade C viruses (n=27) of the cross-clade 162-pseudovirus panel; test: cell-based or functional assay

Row | Binder | Median IC50 (µg/ml) against all viruses | Median IC50 (µg/ml) against viruses neutralized with an IC50 <50 µg/ml | Percent viruses neutralized with an IC50 <50 µg/ml
29 | B2 | 50 µg/mL | 0.78 µg/mL | 41%
30 | B3 | 50 µg/mL | 0.05 µg/mL | 37%
31 | B4 | 50 µg/mL | 7.52 µg/mL | 33%
32 | B1 | 0.49 µg/mL | 0.14 µg/mL | 70%

biological target: HIV-1 Env of the clade D viruses (n=25) of the cross-clade 162-pseudovirus panel; test: cell-based or functional assay

Row | Binder | Median IC50 (µg/ml) against all viruses | Median IC50 (µg/ml) against viruses neutralized with an IC50 <50 µg/ml | Percent viruses neutralized with an IC50 <50 µg/ml
33 | B2 | 50 µg/mL | 0.85 µg/mL | 36%
34 | B3 | 50 µg/mL | 1.09 µg/mL | 24%
35 | B4 | 50 µg/mL | 0.05 µg/mL | 4%
36 | B1 | 10 µg/mL | 1.07 µg/mL | 72%

biological target: HIV-1 Env of the clade F pseudoviruses of the cross-clade 162-pseudovirus panel (n = 15); test: cell-based or functional assay

Row | Binder | Median IC50 (µg/ml) against all viruses
37 | B1 | 16.3 µg/mL

biological target: HIV-1 Env of the clade F viruses (n=15) of the cross-clade 162-pseudovirus panel; test: cell-based or functional assay

Row | Binder | Median IC50 (µg/ml) against all viruses | Median IC50 (µg/ml) against viruses neutralized with an IC50 <50 µg/ml | Percent viruses neutralized with an IC50 <50 µg/ml
38 | B2 | 50 µg/mL | 0.56 µg/mL | 13%
39 | B3 | 7.79 µg/mL | 0.21 µg/mL | 60%
40 | B4 | 50 µg/mL | 4.75 µg/mL | 13%
41 | B1 | 0.82 µg/mL | 0.82 µg/mL | 100%

biological target: HIV-1 Env of the clade G pseudoviruses of the cross-clade 162-pseudovirus panel (n = 15); test: cell-based or functional assay

Row | Binder | Median IC50 (µg/ml) against all viruses
42 | B1 | 9.93 µg/mL

biological target: HIV-1 Env of the clade G viruses (n=15) of the cross-clade 162-pseudovirus panel; test: cell-based or functional assay

Row | Binder | Median IC50 (µg/ml) against all viruses | Median IC50 (µg/ml) against viruses neutralized with an IC50 <50 µg/ml | Percent viruses neutralized with an IC50 <50 µg/ml
43 | B2 | 50 µg/mL | 3.54 µg/mL | 40%
44 | B3 | 50 µg/mL | 0.14 µg/mL | 40%
45 | B4 | 50 µg/mL | 18.9 µg/mL | 27%
46 | B1 |  | 0.11 µg/mL | 80%
